Anti-infective test results gathered from many reports (values: NIAID ChemDB through PubChem).

Shared fields: tests in culture; species: Rhinovirus; measure: inhibition

Blank or dashed fields: not listed here. For "inactive" no cut-off is given. Lines come from different laboratories, so protocols vary. a–b is a range or a potency band. Inhibition is in % at the dose shown (toxicity tests: loss of growth or viability).

compound,method,tested at,cells,strain or isolate,result
O=C(Nc1cc(S(=O)(=O)[O-])cc2cc(S(=O)(=O)[O-])ccc12)c1ccccc1,cytopathic effect,10 µg/mL,Human amnion AV3 cells,-,0%
COc1ccc(Cn2cnc3c(N(C)C)nc(C(F)(F)F)nc32)cc1C,plaque count,8 µM,M-HELA,Serotype 21,16%
Cc1cc(-c2ccc(N=Nc3c(N)c(S(=O)(=O)O)cc4cc(S(=O)(=O)O)ccc34)c(C)c2)ccc1N=Nc1c(N)ccc2cc(S(=O)(=O)O)ccc12,cytopathic effect,5 µg/mL,Human embryonic lung cells,-,0%
CN(C)c1ccc(Cn2cnc3c(N(C)C)nc(C(F)(F)F)nc32)cc1,plaque count,8 µM,M-HELA,Serotype 8,37%
O=C(Oc1c(-c2ccc(Cl)cc2)oc2ccccc2c1=O)c1cc(O)c(O)c(O)c1,plaque count,5.31 µM,HeLa,Serotype 1B,inactive
Cc1cccc(N2CCN(c3ccc(Br)nn3)CC2)c1,-,0.024 µg/mL,-,100 serotypes,18%
CN(C)c1nc(C(F)(F)F)nc2c1ncn2Cc1ccc(F)cc1,plaque count,8 µM,M-HELA,Serotype 5,11%
O=S(=O)(O)c1ccc2cc(O)c(S(=O)(=O)O)cc2c1,cytopathic effect,10 µg/mL,Human amnion AV3 cells,-,0%
O=C(/C=C/c1ccc(O)c(O)c1)Oc1c(-c2ccc(Cl)cc2)oc2ccccc2c1=O,plaque count,6.25 µM,HeLa,Serotype 14,40%
O=C(Nc1cc(S(=O)(=O)O)cc2cc(S(=O)(=O)O)cc(O)c12)c1ccccc1,cytopathic effect,5 µg/mL,Human amnion AV3 cells,-,0%
Cc1cccc(C2=CCN(c3ccc(Br)nn3)CC2)c1,-,0.338 µg/mL,-,17 serotypes,53%
COc1cc(/C=C/C(=O)Oc2c(-c3ccc(Cl)c(Cl)c3)oc3ccccc3c2=O)ccc1O,plaque count,1.59 µM,HeLa,Serotype 1B,33%
Cc1cc(CCCCCCCOc2ccc(C3=NCCO3)cc2)on1,-,1.5 µg/mL,-,100 serotypes,53%
Cc1cc(-c2ccc(N=Nc3ccc4c(S(=O)(=O)O)cc(S(=O)(=O)O)c(N)c4c3O)c(C)c2)ccc1N=Nc1ccc2c(S(=O)(=O)O)cc(S(=O)(=O)O)c(N)c2c1O,cytopathic effect,5 µg/mL,Human amnion AV3 cells,-,0%
CN(c1cccc(F)c1)c1nc(C(F)(F)F)nc2c1ncn2Cc1cccc(F)c1,plaque count,10 µM,M-HELA,Serotype 4,38%
CN(C)c1nc(C(F)(F)F)nc2c1ncn2Cc1cccc(F)c1,plaque count,8 µM,M-HELA,Serotype 19,28%
COc1cc(C(=O)Oc2c(-c3ccc(Cl)c(Cl)c3)oc3ccccc3c2=O)cc(OC)c1O,plaque count,1.56 µM,HeLa,Serotype 14,26%
Cc1ccc(Cn2cnc3c(N(C)C)nc(C(F)(F)F)nc32)c(C)c1,plaque count,8 µM,M-HELA,Serotype 29,20%
CCCCCCCCCCCCCCOc1ccc(C(C)=O)o1,-,0.077 µg/mL,-,17 serotypes,18%
NCS(=O)(=O)O,cytopathic effect,10 µg/mL,Human embryonic lung cells,-,90%
COc1ccc(N2CCN(c3cccc(C)c3)CC2)nn1,-,0.074 µg/mL,-,100 serotypes,18%
COc1cc(C(=O)Oc2c(-c3ccc(Cl)c(Cl)c3)oc3ccccc3c2=O)ccc1OC(C)=O,plaque count,1.56 µM,HeLa,Serotype 14,21%
N#Cc1cc([N+](=O)[O-])ccc1Oc1ccc(Cl)c(Cl)c1,-,0.097 µg/mL,VERO,TYPE 1A,20%
CN(C)c1nc(C(F)(F)F)nc2c1ncn2Cc1ccc([N+](=O)[O-])cc1,plaque count,8 µM,M-HELA,Serotype 21,28%
Cc1ccc(Cn2cnc3c(N(C)C)nc(C(F)(F)F)nc32)cc1,plaque count,2.5 µM,M-HELA,TYPE 8,41%
O=C(Oc1c(-c2ccc(Cl)cc2)oc2ccccc2c1=O)c1cc(OCc2ccccc2)c(OCc2ccccc2)c(OCc2ccccc2)c1,plaque count,1.36 µM,HeLa,Serotype 1B,inactive
Cc1ccccc1Cn1cnc2c(N(C)C)nc(C(F)(F)F)nc21,plaque count,8 µM,M-HELA,Serotype 15,14%
Nc1cc(S(=O)(=O)[O-])cc2cc(S(=O)(=O)[O-])ccc12,cytopathic effect,10 µg/mL,Human amnion AV3 cells,-,5%
CN(C)c1nc(C(F)(F)F)nc2c1ncn2Cc1ccccc1Cl,plaque count,8 µM,M-HELA,Serotype 30,31%
COc1cc(C(=O)Oc2c(-c3ccc(Cl)cc3)oc3ccccc3c2=O)cc(OC)c1OC(C)=O,plaque count,1.56 µM,HeLa,Serotype 14,37%
CN(C)c1nc(C(F)(F)F)nc2c1ncn2Cc1ccccc1,plaque count,8 µM,M-HELA,Serotype 21,28%
Nc1cccc(S(=O)(=O)O)c1,cytopathic effect,10 µg/mL,Human embryonic lung cells,-,0%
Fc1cccc(Cn2cnc3c(Nc4cccc(F)c4)nc(C(F)(F)F)nc32)c1,plaque count,2.5 µM,M-HELA,Serotype 54,27%
O=C(O)Cc1csc(/N=C2\SC[C@@H]3Cc4ccccc4CN23)n1,cytopathic effect,20 µg/mL,MRC-5,Serotype 15,80–100%